Reference: the supplement of paper PMC9931576
Human monoclonal antibodies against the spike receptor-binding domain (heavy:light variable regions). IC50 against pseudoviruses bearing the spike of naturally observed variants; lower = stronger; >10 µg/ml means not reached at the top dose. No active / inactive call. The stated detection limit is 0.0005 µg/ml; values near or below 0.001 µg/ml lie at the floor of the assay.

B1: BD55-6588 (protein)
chain 1: QEQLAESGGGVVQPGRSLRLSCAASGFTFENYAMHWVRQAPGKGLEWVAVASYDGRKKFYADSVKGRFTISRDNYKNTLFLQVNSLRAEDTAVYYCARDDEMGYDIDGHYWRNALDVWGQGTMVTVSP
chain 2: QSALTQPASVSGSPGQSITISCTGTSSDVGGHNYVSWYQQHPGKVSKLMIYDVTKRPSGVSSRFSGSKSGNTASLTISGLQAEDEAHYYCSSYRTSSTLVFGGGTKLTVL
B2: BD55-6585 (protein)
chain 1: EVQLLESGGGLVQPGGSLRLSCVASGFTFSNYAMSWVRQTPGKGLEWVSAISGSGTGAYYADPVRGRFTTYYADSVQGRFTISRDNSKNTVYLQMNSLRAEDSAVYYCAKDPPNYYYYGSGSFEYWGQGTLVTVSS
chain 2: DVVMTQSPLSLPVTLGQPASISCRSSQSLVYSDGNTFLSWFHQRPGQSPRRLIYKVSNRDSGVPDRFSGSGSGTDFTLKISRVEAEDVGVFYCMQGTNWPPTFGQGTKVEIK
B3: BD55-6596 (protein)
chain 1: DVQLVESGGGLVQPGGSLRLSCSASGFTFSNYAMHWVRQTPGKTLEYVSSITRDGGGTFYADSVKGRFTISRDNSKSTLFLQMGSLRTDDTALYYCVRETINTVMLVLDLWGQGTLATVSS
chain 2: DIPMTQSPSSLSASVGDRVTITCRAPQTINNFLNWYQLKPGKAPKLLIYGASNLQSGVPSRFSGSGSGTEYTLTISSLQPEDLATYYCQQTYITPQFTFGRGTKVEIK
B4: BD55-1273 (protein)
chain 1: QLQLQESGPGLVKPSETLSLTCTVSGGSISSKNFYWGWIRQPPGKGLEWIGSINYSGSTYYNPSLKSRDTISVDTSKNQFSLKLKSVTAADTAVYYCARHEFYFDRRSDMVLDAFDIWGQGTMVTVSS
chain 2: EIVLTQSPGTLSLSPGERATLSCRASQSVRSAYLAWYQQRPGQAPRLLISGASSRATGIPDRFSGSGSGTDFTLTISRLEPEDFALYYCQQYGSSPYTFGQGTKLEIK
B5: BD55-6608 (protein)
chain 1: EVQLVESGGGLVQPGGSLRLSCEASGFSFSKYAMHWVRQAPGKGLEYVSGISTNGGGTYNEIPMKGRVTISRDNSKNTLYLQMDSLVPEDTAVYYCARDVGSTWYADAFDVWGQGTMVTVSS
chain 2: DIQMTQSPSSLSASVGDRVTITCRASQSIRNYLNWYQQKPGKAPKLLIYAASSLQSGVPSRFSGSGSGTDFTLTISRLQPDDFATYYCQQSYVSPTLTFGGGTKVEI
B6: BD55-6573 (protein)
chain 1: QLRLQESGPGLVKPAKTLSLTCTVSGGSIGSTSSYWGWIRQPPGKGLEWIGIIHHSGTTNYNPSLKSRVSISVDMSKNQFSLDLTSVTAADTAIYYCARDILYFGEGAFDIWGQGTMVIVSS
chain 2: QAGLIQPPSVSKGVRQTATLTCTGDNNNVGNQGAAWLQQHQGHPPRLLSYRNNNRPSGISERFSASRSGNTASLTITGLQPEDEAEYYCSSWDGSLSAWEFGGGTKLTVL
B7: BD55-6579 (protein)
chain 1: QVTLKESGPVLVKPTETLTLTCTVSGFSLTNTLIGVSWVRQPPGKALEWLAHIFSNDETSYNTSLRNRFTISKGTSKSQVVLTMTNMDPVDTATYFCARMTFIHTALGYFYYMDVWGKGTTVTVSS
chain 2: DIQMTQSPSTLSASVGDRVTITCRASQSISDWLAWYQQKAGKAPKLLIYRASILESGVPSRFSGSGSGTEFTLTISSLQPDDFATYYCQQYNGYFHTFGQGTKLEIK
B8: BD55-6577 (protein)
chain 1: EVQLVESGGGLVKPGRSLRLSCTASGFIFGDYAMSWFRQAPGKGLEWVGFIRTKAYDATTEYAASVRGRFIISRDDSRSIAYLQMNSLKTEDTAVYYCSREGQLPYYYYYAMDVWGQGTTVSVSS
chain 2: DIQMTQSPSSLSASVGDRVSITCRASQSISFYLNWYQQKPGKAPKLLIYAASSLHSGVPSRFSGSGSGTDFTLTISSLQPEDFATYYCQHSYSVPLTFGGGTKVEIK
B9: BD55-6597 (protein)
chain 1: QVQLVQSGAEVKKPGSSVKVSCRASGGTFGSYGISWVRQAPGQGLEWMGRIVPFVTRPDYAQKYQGRVTLTADEATRTAYMELSTLRSEDTAVYYCAGDSLNSAAASGSPPVGWWGQGTLVTVSS
chain 2: DIVMTQSPDSLAVSLGERATINCKSSQSVLYNSNNQNYLAWYQQKPGQPPKLLIYWASTRGSGVPDRFSGSGSGTDFTLTISSLQAEDVAVYYCQQYYRTPLTFGPGTKVDLK
B10: BD55-6594 (protein)
chain 1: QLQLQESGPGLVKPSETLSLTCTVSGGSISSSSFYWGWVRQPPGKGLEWIGNIFYTGITYSNPSLESRVTISVDTSKNQFSLKLSSVTAADTAVFYCARLERTSRSYDLWGQGTLVTVSS
chain 2: QSALTQPRSVSGSPGQSVTISCAGTSSDVGTYQYVSWYQRHPGKAPKLIIQYVTERPSGVPDRFSGSKSGNTASLTISGLQAEDEADYYCCSYAGTVVFGGGTKLTVL
B11: BD55-6601 (protein)
chain 1: EVQLVESGGDLVQPGGSLRLSCSASGFTFSNYVMHWVRQAPGKGLECVSAITIDGSNTYYVDSVKGRFTVSRDNSKNTLYLQMSSLRTDDTAVYYCVKDFSSNYVHYYYYMDVWGKGTTVTVSS
chain 2: DIQMTQSPSSLPASVGDRVTITCRASQTISNYLNWYQQKTGKAPKLLIHSASTLHDGVPSRFSASGSGTDFTLTINSLQPEDFATYYCQQSSSTPLTFGGGTKVEI
B12: BD55-6602 (protein)
chain 1: EVHLVESGGGLVQPGRSLRLSCTASGFTFEDYAMNWVRQAPGKGLEWVSGISWNSGTIAYADSVKGRFTMSRDNDKKSLYLQMNSLRSEDTALYYCAKGRVNWVVTFMDVWGQGTTVTVSS
chain 2: EIVMTQIPLSLSVTPGQPASISCKSSQSLLYSDGKTYVNWYLQKPGQSPQLLIYELSNRFSGVPDRFSGSGSGTDFTLKISRVEAEDVGVYYCMQSIQFPLTFGGGTKVEIK

Target: SARS-CoV-2 Omicron BA.1 spike pseudovirus
Assay: pseudovirus neutralization IC50; higher = weaker neutralization
Procedure: (§1)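 Single-round VSV luciferase pseudovirus mixed with antibody dilutions for 1 h and put on Huh-7 cells for about a day; IC50 from the dose curve.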

First: B1
Second: B2
The “pseudovirus neutralization IC50” value of the first is higher: greater than 10 µg/mL for the first, 1.49 µg/mL for the second.

B3 and B4 cannot be ordered by “pseudovirus neutralization IC50” value: greater than 10 µg/mL for the first, greater than 10 µg/mL for the second.

B5 and B6 cannot be ordered by “pseudovirus neutralization IC50” value: greater than 10 µg/mL for the first, greater than 10 µg/mL for the second.

Going from B7 to B8, the “pseudovirus neutralization IC50” value falls from greater than 10 µg/mL to 3.84 µg/mL.

B9 and B10 cannot be ordered by “pseudovirus neutralization IC50” value: greater than 10 µg/mL for the first, greater than 10 µg/mL for the second.

First: B11
Second: B12
The “pseudovirus neutralization IC50” value of the first is lower: 2.51 µg/mL for the first, greater than 10 µg/mL for the second.

Target: SARS-CoV-2 Omicron BA.2 spike pseudovirus
Assay: as above
Procedure: as §1

Going from B1 to B2, the “pseudovirus neutralization IC50” value falls from greater than 10 µg/mL to 2.02 µg/mL.

B3 and B4 cannot be ordered by “pseudovirus neutralization IC50” value: greater than 10 µg/mL for the first, greater than 10 µg/mL for the second.

B5 and B6 cannot be ordered by “pseudovirus neutralization IC50” value: greater than 10 µg/mL for the first, greater than 10 µg/mL for the second.

First: B7
Second: B8
The “pseudovirus neutralization IC50” value of the first is higher: greater than 10 µg/mL for the first, 6.19 µg/mL for the second.

B9 and B10 cannot be ordered by “pseudovirus neutralization IC50” value: greater than 10 µg/mL for the first, greater than 10 µg/mL for the second.

Going from B11 to B12, the “pseudovirus neutralization IC50” value rises from 4.59 µg/mL to greater than 10 µg/mL.

Target: SARS-CoV-2 Omicron BA.2.75 spike pseudovirus
Assay: as above
Procedure: as §1

Compared with B1, B2 is lower in “pseudovirus neutralization IC50” value: greater than 10 µg/mL for the first, 2.46 µg/mL for the second.

B3 and B4 cannot be ordered by “pseudovirus neutralization IC50” value: greater than 10 µg/mL for the first, greater than 10 µg/mL for the second.

B5 and B6 cannot be ordered by “pseudovirus neutralization IC50” value: greater than 10 µg/mL for the first, greater than 10 µg/mL for the second.

First: B7
Second: B8
The “pseudovirus neutralization IC50” value of the first is higher: greater than 10 µg/mL for the first, 7.7 µg/mL for the second.

B9 and B10 cannot be ordered by “pseudovirus neutralization IC50” value: greater than 10 µg/mL for the first, greater than 10 µg/mL for the second.

Going from B11 to B12, the “pseudovirus neutralization IC50” value rises from 5.63 µg/mL to greater than 10 µg/mL.

Target: SARS-CoV-2 Omicron BA.5 spike pseudovirus
Assay: as above
Procedure: as §1

Compared with B1, B2 is lower in “pseudovirus neutralization IC50” value: greater than 10 µg/mL for the first, 3.02 µg/mL for the second.

B3 and B4 cannot be ordered by “pseudovirus neutralization IC50” value: greater than 10 µg/mL for the first, greater than 10 µg/mL for the second.

B5 and B6 cannot be ordered by “pseudovirus neutralization IC50” value: greater than 10 µg/mL for the first, greater than 10 µg/mL for the second.

Compared with B7, B8 is lower in “pseudovirus neutralization IC50” value: greater than 10 µg/mL for the first, 3.81 µg/mL for the second.

B9 and B10 cannot be ordered by “pseudovirus neutralization IC50” value: greater than 10 µg/mL for the first, greater than 10 µg/mL for the second.

Going from B11 to B12, the “pseudovirus neutralization IC50” value rises from 8.41 µg/mL to greater than 10 µg/mL.

Target: SARS-CoV-2 Omicron BQ.1.1 spike pseudovirus
Assay: as above
Procedure: as §1

B1 and B2 cannot be ordered by “pseudovirus neutralization IC50” value: greater than 10 µg/mL for the first, greater than 10 µg/mL for the second.

B3 and B4 cannot be ordered by “pseudovirus neutralization IC50” value: greater than 10 µg/mL for the first, greater than 10 µg/mL for the second.

B5 and B6 cannot be ordered by “pseudovirus neutralization IC50” value: greater than 10 µg/mL for the first, greater than 10 µg/mL for the second.

B7 and B8 cannot be ordered by “pseudovirus neutralization IC50” value: greater than 10 µg/mL for the first, greater than 10 µg/mL for the second.

B9 and B10 cannot be ordered by “pseudovirus neutralization IC50” value: greater than 10 µg/mL for the first, greater than 10 µg/mL for the second.

B11 and B12 cannot be ordered by “pseudovirus neutralization IC50” value: greater than 10 µg/mL for the first, greater than 10 µg/mL for the second.

Target: SARS-CoV-2 Omicron XBB spike pseudovirus
Assay: as above
Procedure: as §1

B1 and B2 cannot be ordered by “pseudovirus neutralization IC50” value: greater than 10 µg/mL for the first, greater than 10 µg/mL for the second.

B3 and B4 cannot be ordered by “pseudovirus neutralization IC50” value: greater than 10 µg/mL for the first, greater than 10 µg/mL for the second.

B5 and B6 cannot be ordered by “pseudovirus neutralization IC50” value: greater than 10 µg/mL for the first, greater than 10 µg/mL for the second.

B7 and B8 cannot be ordered by “pseudovirus neutralization IC50” value: greater than 10 µg/mL for the first, greater than 10 µg/mL for the second.

B9 and B10 cannot be ordered by “pseudovirus neutralization IC50” value: greater than 10 µg/mL for the first, greater than 10 µg/mL for the second.

B11 and B12 cannot be ordered by “pseudovirus neutralization IC50” value: greater than 10 µg/mL for the first, greater than 10 µg/mL for the second.

Target: SARS-CoV-2 early D614G spike pseudovirus
Assay: as above
Procedure: as §1

Compared with B1, B2 is lower in “pseudovirus neutralization IC50” value: greater than 10 µg/mL for the first, 1.66 µg/mL for the second.

Going from B3 to B4, the “pseudovirus neutralization IC50” value falls from greater than 10 µg/mL to 0.0461 µg/mL.

B5 and B6 cannot be ordered by “pseudovirus neutralization IC50” value: greater than 10 µg/mL for the first, greater than 10 µg/mL for the second.

Compared with B7, B8 is lower in “pseudovirus neutralization IC50” value: greater than 10 µg/mL for the first, 4.8 µg/mL for the second.

B9 and B10 cannot be ordered by “pseudovirus neutralization IC50” value: greater than 10 µg/mL for the first, greater than 10 µg/mL for the second.

First: B11
Second: B12
The “pseudovirus neutralization IC50” value of the first is lower: 8.79 µg/mL for the first, greater than 10 µg/mL for the second.
